US20260259169A1, “BETA-LACTAMASE SUBSTRATE COMPOUNDS AND ELECTROCHEMICAL DETECTION METHODS USING THEM” (priority 2023, published 2026)

System: beta-lactamases
Experiment: Cyclic voltammetry in the presence and absence of beta-lactamases
Format: biochemical
Conditions: 1 entire voltage cycle; signal only in positive samples

With `CC(C)(ON=C(C(=O)NC1C(=O)N2C(C(=O)O)=C(C=Cc3ccc(C#N)cc3[N+](=O)[O-])CSC12)c1csc(N)n1)C(=O)O` (stereo not shown) [2-nitro-4-cyano] the “potential of the oxidation signal specific for the presence of beta-lactamases” value was “+0.3 V vs. Ag/AgCl”.
